Results taken from US6140368A, “Naphthols useful in antiviral methods” (The Regents of the University of California, priority 1998, dated 2000).

Legend:
HIV integrase [1] = target: T1, HIV integrase (Human immunodeficiency virus type 1 group M subtype B, UniProt P04585); experiment: Integrase assay, inhibition of strand transfer (Example 7, Table 4); assay type: biochemical; conditions: read-out: Inhibition of strand transfer (IC50)
HIV integrase [2] = target: T1, HIV integrase; experiment: Integrase assay, inhibition of 3' processing activity (Example 7, Table 4); assay type: biochemical; conditions: read-out: Inhibition of 3' processing activity (IC50)

In the case of `O=C(Nc1ccc2c(O)c(N=Nc3ccc([As](=O)(O)O)cc3)c(S(=O)(=O)O)cc2c1)Nc1ccc2c(O)c(N=Nc3ccc([As](=O)(O)O)cc3)c(S(=O)(=O)O)cc2c1` [Compound 48], the IC50 (HIV integrase [1]) is reported as over 3 µM and the IC50 (HIV integrase [2]) is reported as over 3 µM.
